Anti-infective test results gathered from many reports (values: NIAID ChemDB through PubChem).

Common to all: cytotoxicity tests; cell line: HSB-2; measure: CC50

An empty or dashed field is not shown.

OC[C@H]1CC(n2c(NC3CC3)nc3cc(Cl)c(Cl)cc32)[C@H](O)[C@@H]1O ; method: ATP ; result: 82 µM
Nc1nc2c(ncn2/C=C2\CC2(CO)CO)c(=O)[nH]1 ; result: >190 µM
CCCCCCCCCCCCCCCCCOC[C@H](COP1(=O)CO[C@@H](Cn2ccc(N)nc2=O)CO1)OCc1ccccc1 ; result: >1 µM
Nc1nc2c(ncn2CC(CO)CCO)c(=O)[nH]1 ; result: 640 µM
Nc1ccn(/C=C2/CC2(CO)CO)c(=O)n1 ; result: 41 µM
CC(C)Nc1nc2cc(Cl)c(Cl)cc2n1[C@H]1O[C@@H](CO)[C@H](O)[C@@H]1O ; method: neutral red ; result: >133 µM
O[C@@H]1[C@H](O)CO[C@H]1n1c(Br)nc2cc(Cl)c(Cl)cc21 ; method: ATP ; result: 17 µM
CCCCCCCC/C=C\CCCCCCCOCCCOP(=O)(O)CO[C@H](CO)Cn1ccc(N)nc1=O ; result: >444 µM
O[C@@H]1[C@H](O)[C@H](O)CO[C@H]1n1c(Br)nc2cc(Cl)c(Cl)cc21 ; method: neutral red ; result: >125 µM
Cc1cn([C@H]2C[C@H](N=[N+]=[N-])[C@@H](CO)O2)c(=O)[nH]c1=O ; result: >200 µM
O[C@@H]1[C@H](O)[C@H](O)CO[C@H]1n1c(Br)nc2cc(Cl)c(Cl)cc21 ; method: ATP ; result: 43 µM
Cc1cn([C@@H]2S[C@@H](CO)[C@H](O)[C@H]2O)c(=O)[nH]c1=O ; result: >100 µg/mL
C=CCOc1nc(N)nc2c1ncn2/C=C1/C[C@@H]1CO ; result: 46 µM
C[C@H]1O[C@@H](n2c(NC3CC3)nc3cc(Cl)c(Cl)cc32)[C@H](O)[C@@H]1O ; method: ATP ; result: >100 µM
Nc1nc2c(ncn2COCCO)c(=O)[nH]1 ; result: 200 µM
Nc1ccn(C[C@@H](CO)OCP(=O)(O)O)c(=O)n1 ; result: >1 µM
Nc1nc2c(ncn2/C=C2/CC2(CO)CO)c(=O)[nH]1 ; result: 104 µM
Cn1cc(C(=O)NCc2ccc(Cl)cc2)c(=O)c2c1SC(CN1CCOCC1)C2 ; method: MTS ; result: >23.1 µM
Nc1nc(OCC2CC2)c2ncn(/C=C3/C[C@@H]3CO)c2n1 ; result: 54 µM
CC(C)Nc1nc2cc(Cl)c(Cl)cc2n1[C@H]1O[C@H](C)[C@H](O)[C@@H]1O ; method: ATP ; result: 68 µM
CCCCCCCCCCCCCCCCOP1(=O)CO[C@@H](Cn2ccc(N)nc2=O)CO1 ; result: >1 µM
NC(=O)c1c(Cl)c(-c2cccnc2)n2c1CCCC2 ; result: 144 µM
OCC1OC(n2c(Br)nc3cc(Cl)c(Cl)cc32)C(O)C1O ; method: ATP ; result: 62 µM

Repeating the final 2 entries:

| compound | method | result |
|---|---|---|
| NC(=O)c1c(Cl)c(-c2cccnc2)n2c1CCCC2 |  | 144 µM |
| OCC1OC(n2c(Br)nc3cc(Cl)c(Cl)cc32)C(O)C1O | ATP | 62 µM |

Lines come from different laboratories, so protocols vary. CCn is the concentration with n% toxicity to the cells.